In patent US9295730B2, “Conjugated molecules comprising a peptide derived from the CD4 receptor coupled to a polyanion for the treatment of AIDS” (Institut Pasteur, priority 2008, dated 2016):

How the values were obtained:
[1] = test system: uninfected PHA-P-activated PBMC; experiment: Cytotoxicity, MTT assay on day 7; type: cell-based; conditions: Table 7
Method: (§1) In parallel, cytotoxicity of the samples was evaluated in uninfected PHA-P-activated PBMC by a methyltetrazolium salt (MTT) assay on day 7. Experiments were performed in triplicate and 50, 70 and 90% effective doses and cytotoxic doses were calculated using SoftMaxPro software.

[2] = Cytotoxicity, MTT assay on day 7; type: cell-based; conditions: human, uninfected PHA-P-activated PBMC, Table 7, read-out: Cytotoxicity CT50
Method: as §1

[3] = target: gp120 MN/mAb 17b interaction (Human immunodeficiency virus type 1 group M subtype B, UniProt P05877); experiment: Biacore gp120 MN binding to mAb 17b surface; design: species or system HIV; conditions: gp120 MN and inhibitors at 40 nM; FIG. 6
Method: (§2) FIG. 6: Diagram representing the binding of gp120 (YU2 or MN) to mAb 17b.
(§3) FIG. 7: Diagram representing the binding of gp120 MN (top) or YU2 (bottom) to mAb 17b.
(§4) Two different gp120 were used, originating from a type X4 isolate (gp120 MN) and a type R5 isolate (gp120 YU2). The capacity of different molecules to inhibit gp120 interactions with various receptors or co-receptors is measured by surface plasmonic resonance (Biacore). To do this, three compounds are immobilized on the surface of a biosensor (Sensorchip CM 4 Biacore) in accordance with the described procedure (Vives et al. J. Biol. Chem. 279, 54327-54333, 2005). These are CD4, HS (or heparin) and a monoclonal antibody (mAb 17b). This antibody recognizes the epitope induced by CD4 and mimics co-receptor CCR5 or CXCR4. These three surfaces represent the three main molecules on the cell surface recognized by gp120 (CD4, co-receptors and HS).
(§5) In the set of experiments described below, gp120 (light lines on FIGS. 4 to 6) alone or pre-incubated with the compound to be tested (heavy lines on FIGS. 4 to 6) is injected onto these surfaces, and the interaction signal is measured as a function of time for five minutes.
(§6) The quantity of gp120 bound to the antibody is measured at the end of the injection.

R5-tropic HIV-1/Ba-L = experiment: Antiviral assay, PHA-P-activated PBMC infected with HIV-1/Ba-L, RT activity in supernatants; type: cell-based; conditions: for EC50: read-out: ED50 (the source's name)
X4-tropic HIV-1-LAI = experiment: Antiviral assay, PHA-P-activated PBMC infected with HIV-1-LAI, RT activity in supernatants; type: cell-based; conditions: for EC50: read-out: ED50 (the source's name)
[4] = test system: gp120/mAb 17b interaction; experiment: Biacore gp120 binding to mAb 17b surface, gp120 isolate not named (FIG. 2, FIG. 8); conditions: FIG. 2 bottom; mCD4 in complex with gp120
Method: FIG. 8: Diagram representing the binding of gp120 to mAb 17b.
In the following experiment, 40 nM of gp120 was co-incubated with 80 nM of mCD4 and 80 nM of the various molecules mentioned above, or 80 nM of corresponding covalent conjugates. The interaction with 17b is measured. T represents measurement of gp120 binding to mCD4 alone.

gp120 MN/HS interaction = target: T1, gp120 MN/HS interaction (Human immunodeficiency virus type 1 group M subtype B, UniProt P05877); experiment: Biacore inhibition of gp120 MN binding to HS surface; design: species or system HIV; conditions: gp120 MN and inhibitors at 40 nM
T1 construct: of mCD4-HS12 for MN and YU2 gp120
Method: FIG. 5: Diagram representing the binding of gp120 (MN) to HS.
as §4, §5

gp120/sCD4 interaction = experiment: Biacore gp120 binding to sCD4 surface (FIG. 2); conditions: FIG. 2 middle
Method: Affinity of synthesized miniCD4 for gp120 was evaluated by Biacore.

[5] = target: gp120 YU2/mAb 17b interaction (Human immunodeficiency virus type 1 group M subtype B, UniProt P35961); experiment: Biacore gp120 YU2 binding to mAb 17b surface; design: species or system HIV; conditions: gp120 YU2 and inhibitors at 40 nM; FIG. 6
Method: as §2, §3, §4, §5, §6

[6] = Table 6, /Ba-L (R5), 100 TCID50, day 7, RT activity, ±S.D.
[7] = Table 6, LAI (X4), 100 TCID50, day 7, RT activity, ±S.D.

Row | Compound | Cytotoxicity CT70 [1] | Cytotoxicity CT90 [1] | CC50 at 168 h [2] | effect on gp120 binding to mAb 17b [3] | ED70 (R5-tropic HIV-1/Ba-L; [6]) | ED90 (R5-tropic HIV-1/Ba-L; [6]) | EC50 (R5-tropic HIV-1/Ba-L; [6]) | ED70 (R5-tropic HIV-1/Ba-L; Table 7, VIH-1/Ba-L) | ED90 (R5-tropic HIV-1/Ba-L; Table 7, VIH-1/Ba-L) | EC50 (R5-tropic HIV-1/Ba-L; Table 7, VIH-1/Ba-L) | ED70 (X4-tropic HIV-1-LAI; [7]) | ED90 (X4-tropic HIV-1-LAI; [7]) | EC50 (X4-tropic HIV-1-LAI; [7]) | ED70 (X4-tropic HIV-1-LAI; Table 7, VIH-1-LAI) | ED90 (X4-tropic HIV-1-LAI; Table 7, VIH-1-LAI) | EC50 (X4-tropic HIV-1-LAI; Table 7, VIH-1-LAI) | gp120 binding to mAb 17b surface [4] | inhibition of gp120/HS interaction (gp120 MN/HS interaction) | gp120 binding to sCD4 surface (gp120/sCD4 interaction) | effect on gp120 binding to mAb 17b [5]
1 | CC(C)C[C@@H]1NC(=O)CNC(=O)[C@H](CC(C)C)NC(=O)[C@H](CO)NC(=O)[C@H](CO)NC(=O)[C@@H]2CSSC[C@@H](C(=O)N[C@H](C(N)=O)C(C)C)NC(=O)[C@H](C)NC(=O)[C@@H]3CSSC[C@H](NC(=O)[C@H](CCCCN)NC(=O)[C@H](Cc4c[nH]cn4)NC(=O)[C@H](CC(C)C)NC(=O)[C@H](CC(N)=O)NC(=O)CCSSC[C@H](NC(=O)[C@H](CCCNC(=N)N)NC(=O)CNC(=O)[C@H](CC(C)C)NC1=O)C(=O)N[C@@H](C)C(=O)NCC(=O)N[C@@H](CO)C(=O)N[C@@H](Cc1ccc(-c4ccccc4)cc1)C(=O)N3)C(=O)N[C@@H](CCC(N)=O)C(=O)N[C@@H](CC(C)C)C(=O)N[C@@H](CCCNC(=N)N)C(=O)N2 [mCD4] | >1000 nM | >1000 nM | > 1000 nM | greatly enhances this reaction | >500 nM | >500 nM | > 500 nM | >1000 nM | >1000 nM | > 1000 nM | 377 ± 169 nM | 560 ± 222 nM | 244 ± 18 nM | >1000 nM | >1000 nM | 387 nM | promotes gp120 binding to mAb 17b surface | no effect | inhibited by nM concentration of mCD4 | greatly enhances this reaction
2 | COc1ccc(CO[C@H]2[C@H](OCc3ccccc3)[C@@H](OS(=O)(=O)O)[C@H](O[C@H]3[C@H](OCc4ccccc4)[C@@H](NS(=O)(=O)O)[C@@H](O[C@H]4[C@H](OCc5ccccc5)[C@@H](OS(=O)(=O)O)[C@H](O[C@H]5[C@H](OCc6ccccc6)[C@@H](NS(=O)(=O)O)[C@@H](O[C@H]6[C@H](OCc7ccccc7)[C@@H](OS(=O)(=O)O)[C@H](O[C@H]7[C@H](OCc8ccccc8)[C@@H](NS(=O)(=O)O)[C@@H](O[C@H]8[C@H](OCc9ccccc9)[C@@H](OS(=O)(=O)O)[C@H](O[C@H]9[C@H](OCc%10ccccc%10)[C@@H](NS(=O)(=O)O)[C@@H](O[C@H]%10[C@H](OCc%11ccccc%11)[C@@H](OS(=O)(=O)O)[C@H](O[C@H]%11[C@H](OCc%12ccccc%12)[C@@H](NS(=O)(=O)O)[C@@H](O[C@H]%12[C@H](OCc%13ccccc%13)[C@@H](OS(=O)(=O)O)[C@H](O[C@H]%13[C@H](OCc%14ccccc%14)[C@@H](NS(=O)(=O)O)[C@H](OCCCCCNC(=O)CCSC%14CC(=O)N(CCC(=O)NCCOCCOCCC(=O)NCCCC[C@@H]%15NC(=O)[C@H](Cc%16c[nH]cn%16)NC(=O)[C@H](CC(C)C)NC(=O)[C@H](CC(N)=O)NC(=O)CCSSC[C@@H]%16NC(=O)[C@H](CCCNC(=N)N)NC(=O)CNC(=O)[C@H](CC(C)C)NC(=O)[C@H](CC(C)C)NC(=O)CNC(=O)[C@H](CC(C)C)NC(=O)[C@H](CO)NC(=O)[C@H](CO)NC(=O)[C@@H]%17CSSC[C@@H](C(=O)N[C@H](C(N)=O)C(C)C)NC(=O)[C@H](C)NC(=O)[C@H](CSSC[C@H](NC%15=O)C(=O)N[C@@H](CCC(N)=O)C(=O)N[C@@H](CC(C)C)C(=O)N[C@@H](CCCNC(=N)N)C(=O)N%17)NC(=O)[C@H](Cc%15ccc(-c%17ccccc%17)cc%15)NC(=O)[C@H](CO)NC(=O)CNC(=O)[C@H](C)NC%16=O)C%14=O)O[C@@H]%13COS(=O)(=O)O)O[C@H]%12C(=O)O)O[C@@H]%11COS(=O)(=O)O)O[C@H]%10C(=O)O)O[C@@H]9COS(=O)(=O)O)O[C@H]8C(=O)O)O[C@@H]7COS(=O)(=O)O)O[C@H]6C(=O)O)O[C@@H]5COS(=O)(=O)O)O[C@H]4C(=O)O)O[C@@H]3COS(=O)(=O)O)O[C@H]2C(=O)O)cc1 (some centres unmarked) [mCD4-HS12Bz, mCD4-PEO2-Bzl-dodecasaccharide] | >1000 nM | >1000 nM | > 1000 nM | – | – | – | – | >1000 nM | >1000 nM | > 1000 nM | – | – | – | >1000 nM | >1000 nM | > 1000 nM | – | – | – | –
3 | CSCC[C@H](N)C(=O)N[C@@H](CCC(=O)O)C(=O)N[C@@H](CC(=O)O)C(=O)N[C@@H](CC(C)C)C(=O)N[C@@H](CCC(=O)O)C(=O)N[C@@H](CCC(=O)O)C(=O)N[C@H](C(=O)N[C@@H](CC(C)C)C(=O)N[C@@H](Cc1ccccc1)C(=O)N[C@@H](CCC(=O)O)C(=O)N[C@@H](CCC(=O)O)C(=O)N[C@@H](Cc1ccccc1)C(=O)N[C@@H](CCC(=O)O)C(=O)N[C@@H](CC(N)=O)C(=O)N[C@@H](Cc1ccc(O)cc1)C(=O)N[C@@H](CO)C(=O)N[C@@H](Cc1ccc(O)cc1)C(=O)N[C@@H](CC(=O)O)C(=O)N[C@@H](CC(C)C)C(=O)N[C@@H](CC(=O)O)C(=O)N[C@@H](Cc1ccc(O)cc1)C(=O)N[C@@H](Cc1ccc(O)cc1)C(=O)N[C@@H](CO)C(=O)N[C@@H](CC(C)C)C(=O)N[C@@H](CCC(=O)O)C(=O)N[C@@H](CO)C(=O)N[C@@H](CSC1CC(=O)N(CCC(=O)NCCOCCOCCC(=O)NCCCC[C@@H]2NC(=O)[C@H](Cc3c[nH]cn3)NC(=O)[C@H](CC(C)C)NC(=O)[C@H](CC(N)=O)NC(=O)CCSSC[C@@H]3NC(=O)[C@H](CCCNC(=N)N)NC(=O)CNC(=O)[C@H](CC(C)C)NC(=O)[C@H](CC(C)C)NC(=O)CNC(=O)[C@H](CC(C)C)NC(=O)[C@H](CO)NC(=O)[C@H](CO)NC(=O)[C@@H]4CSSC[C@@H](C(=O)N[C@H](C(N)=O)C(C)C)NC(=O)[C@H](C)NC(=O)[C@H](CSSC[C@H](NC2=O)C(=O)N[C@@H](CCC(N)=O)C(=O)N[C@@H](CC(C)C)C(=O)N[C@@H](CCCNC(=N)N)C(=O)N4)NC(=O)[C@H](Cc2ccc(-c4ccccc4)cc2)NC(=O)[C@H](CO)NC(=O)CNC(=O)[C@H](C)NC3=O)C1=O)C(=O)O)[C@@H](C)O (some centres unmarked) [mCD4-GPR1, reference compound] | >1000 nM | >1000 nM | > 1000 nM | – | – | – | – | 231 nM | 309 nM | 205 nM | – | – | – | 67 nM | 67.5 nM | 66 nM | – | – | – | –
4 | COc1ccc(CO[C@H]2[C@H](OCc3ccccc3)[C@@H](OS(=O)(=O)O)[C@H](O[C@H]3[C@H](OCc4ccccc4)[C@@H](NS(=O)(=O)O)[C@@H](O[C@H]4[C@H](OCc5ccccc5)[C@@H](OS(=O)(=O)O)[C@H](O[C@H]5[C@H](OCc6ccccc6)[C@@H](NS(=O)(=O)O)[C@H](OCCCCCNC(=O)CCSC6CC(=O)N(CCC(=O)NCCOCCOCCC(=O)NCCCC[C@@H]7NC(=O)[C@H](Cc8c[nH]cn8)NC(=O)[C@H](CC(C)C)NC(=O)[C@H](CC(N)=O)NC(=O)CCSSC[C@@H]8NC(=O)[C@H](CCCNC(=N)N)NC(=O)CNC(=O)[C@H](CC(C)C)NC(=O)[C@H](CC(C)C)NC(=O)CNC(=O)[C@H](CC(C)C)NC(=O)[C@H](CO)NC(=O)[C@H](CO)NC(=O)[C@@H]9CSSC[C@@H](C(=O)N[C@H](C(N)=O)C(C)C)NC(=O)[C@H](C)NC(=O)[C@H](CSSC[C@H](NC7=O)C(=O)N[C@@H](CCC(N)=O)C(=O)N[C@@H](CC(C)C)C(=O)N[C@@H](CCCNC(=N)N)C(=O)N9)NC(=O)[C@H](Cc7ccc(-c9ccccc9)cc7)NC(=O)[C@H](CO)NC(=O)CNC(=O)[C@H](C)NC8=O)C6=O)O[C@@H]5COS(=O)(=O)O)O[C@H]4C(=O)O)O[C@@H]3COS(=O)(=O)O)O[C@H]2C(=O)O)cc1 (some centres unmarked) [mCD4-HS4Bz, mCD4-PEO2-Bzl-tetrasaccharide] | >1000 nM | >1000 nM | > 1000 nM | – | – | – | – | 195 nM | 211 nM | 184 nM | – | – | – | 84 nM | 86 nM | 83 nM | – | – | – | –

Read-outs that look alike come from different tables or passages of the source.
